Target: PltC of the PltC typhoid toxin (PltC-PltA-CdtB-His6) (Salmonella enterica serovar Typhi)
Experiment: crystal structure

Question: For “PltC of the PltC typhoid toxin (PltC-PltA-CdtB-His6) (natural protein)”, which stoichiometry N is on record?
Answer: Its stoichiometry N is 5.
